Broadly, the Kd is a measure of binding affinity in units of concentration. Read a low Kd as higher affinity.

The values that follow come from patent US20230338478A1 (University of Pennsylvania, published 2023).

The target of the assay is T1, yeast-displayed SARS-CoV-2 'Delta 4+' RBD (SARS-CoV-2).
T1 construct: range […]
The assay is described as follows: yeast-displayed RBD, decoy titration, flow cytometry. (In flow cytometry, cells or beads pass a laser one at a time.)

B1: hAce2-Variant2-IgG1 soluble decoy fusion protein (Fc fusion)
chain: QSTIEEQAKTFLDMFNHKAEDLFYQSSLAAWNYNTNITEENVQNMNNAGDKWSAFLKEQSTFAQMYPLQEIQNPTVKLQLQALQQNGSSVLSEDKSKRLNTILNTMSTIYSTGKVCNPDNPQECLLLEPGLNEIMANSLDYNERLWAWESWRSEVGKQLRPLYEEYVVLKNEMARANHYEDYGDYWRGDYEVNGVDGYDYSRGQLIEDVEHTFEEIKPLYEHLHAYVRAKLMNAYPSYISPIGCLPAHLLGDMWGRFWTNLYSLTVPFGQKPNIDVTDAMVDQAWDAQRIFKEAEKFFVSVGLPNMTQGFWEYSMLTDPGNVQKAVCLPTAWDLGKGDFRILMCTKVTMDDFLTAHHEMGHIQYDMAYAAQPFLLRNGANEGFHEAVGEIMSLSAATPKHLKSIGLLSPDFQEDNETEINFLLKQALTIVGTLPFTYMLEKWRWMVFKGEIPKDQWMKKWWEMKREIVGVVEPVPHDETYCDPASLFHVSNDYSFIRYYTRTLYQFQFQEALCQAAKHEGPLHKCDISNSTEAGQKLFNMLRLGKSEPWTLALENVVGAKNMNVRPLLNYFEPLFTWLKDQNKNSFVGWSTDWSPYAD[gap - human IgG1 Fc]
In the case of B1, the Kd is 0.07 nM.
